Source: article PMC9247205

Chains of the proteins cited; added tags and fusions are not shown. Lines headed by an entry give the natural chain unless they say otherwise; changes in a name come on top.
UniProt C4M4V3: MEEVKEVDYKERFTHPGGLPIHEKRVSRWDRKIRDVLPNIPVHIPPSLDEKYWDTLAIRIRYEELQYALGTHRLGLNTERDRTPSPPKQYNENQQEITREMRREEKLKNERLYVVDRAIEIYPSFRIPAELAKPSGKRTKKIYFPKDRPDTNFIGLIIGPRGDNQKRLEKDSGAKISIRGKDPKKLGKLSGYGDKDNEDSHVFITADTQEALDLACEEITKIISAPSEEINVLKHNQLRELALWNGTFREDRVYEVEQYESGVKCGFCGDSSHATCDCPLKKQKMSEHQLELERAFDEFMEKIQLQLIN
UniProt C4LXB3: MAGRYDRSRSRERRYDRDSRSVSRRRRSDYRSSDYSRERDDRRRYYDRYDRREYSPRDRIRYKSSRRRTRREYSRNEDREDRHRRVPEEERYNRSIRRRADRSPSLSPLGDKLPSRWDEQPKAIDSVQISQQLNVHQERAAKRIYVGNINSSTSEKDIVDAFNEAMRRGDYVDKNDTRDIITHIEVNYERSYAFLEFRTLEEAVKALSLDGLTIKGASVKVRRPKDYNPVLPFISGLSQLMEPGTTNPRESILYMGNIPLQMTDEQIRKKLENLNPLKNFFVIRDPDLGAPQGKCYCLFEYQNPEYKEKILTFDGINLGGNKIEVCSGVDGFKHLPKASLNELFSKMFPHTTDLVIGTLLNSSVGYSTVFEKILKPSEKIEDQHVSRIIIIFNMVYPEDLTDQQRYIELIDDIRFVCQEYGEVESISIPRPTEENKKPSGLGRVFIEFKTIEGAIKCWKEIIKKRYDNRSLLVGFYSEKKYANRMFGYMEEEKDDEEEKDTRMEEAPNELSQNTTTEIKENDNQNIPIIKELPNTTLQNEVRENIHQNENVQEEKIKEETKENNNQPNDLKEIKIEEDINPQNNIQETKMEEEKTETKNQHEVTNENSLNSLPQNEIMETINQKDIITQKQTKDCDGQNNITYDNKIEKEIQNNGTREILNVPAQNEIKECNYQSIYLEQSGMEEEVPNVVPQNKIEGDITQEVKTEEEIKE

Legend:
[1] = target: GST-SF1KQ (EhSF1 KH-QUA2 domain) (Entamoeba histolytica) (UniProt C4M4V3); test: EMSA; conditions: EMSA: 50 ug protein (Fig 4), 200 fmol probe, 20 min (+10 min with U2 snRNA); binding buffer as in Ortuno-Pineda 2012, not given; recombinant protein; protein details: N-terminal GST (pGex 6p1); label: 5'-32P
[2] = test system: GST-SF1KQ (EhSF1 KH-QUA2 domain) + His-84KQ (EhU2AF2 KH-QUA2 domain); test: EMSA; conditions: 1x U2 snRNA, 84KQ inhibits displacement of SF1KQ; EMSA: 50 ug protein (Fig 4), 200 fmol probe, 20 min (+10 min with U2 snRNA); binding buffer as in Ortuno-Pineda 2012, not given; recombinant protein; protein details: N-terminal GST (pGex 6p1),His6 (pET28a); label: 5'-32P
[3] = test system: GST-SF1KQ (EhSF1 KH-QUA2 domain) + His-84KQ (EhU2AF2 KH-QUA2 domain); test: EMSA (supershift); conditions: EMSA: 50 ug protein (Fig 4), 200 fmol probe, 20 min (+10 min with U2 snRNA); binding buffer as in Ortuno-Pineda 2012, not given; recombinant protein; protein details: N-terminal GST (pGex 6p1),His6 (pET28a); label: 5'-32P
[4] = target: GST-SF1KQ (EhSF1 KH-QUA2 domain) (Entamoeba histolytica) (UniProt C4M4V3); test: UV crosslinking; conditions: recombinant protein; protein details: N-terminal GST (pGex 6p1); label: 5'-32P
[5] = target: His-84KQ (EhU2AF2 KH-QUA2 domain) (Entamoeba histolytica) (UniProt C4LXB3); test: UV crosslinking; conditions: pH 4, better than Entamoeba BS; recombinant protein; protein details: His6 (pET28a); label: 5'-32P

Measured: binding result

AACUUUUAUUU [E. histolytica RabX13 intron BS probe (P+)]
binds: [1] | [2] | [3] | [4]

UAUACUAACAA [yeast canonical BS probe (C+)]
binds: [1] | [2] | [5]

Construct, isoform or probe ends are uncertain for at least one entry. For some of these results: At least one verdict rests on a figure or table, not on a statement of the authors.
